Tested on: Pseudomonas aeruginosa
Settings: isolate 2804

GENTAMICIN
MIC: 0.5 µg/mL

Reference: ChEMBL document CHEMBL1649198, “Efflux unbalance in Pseudomonas aeruginosa isolates from cystic fibrosis patients” (2009)
